Results from patent US20200140526A1 (UNIVERSITY OF ROCHESTER, published 2020).

What was measured:
Assay in all cases: cell-based or functional assay
[1] = biological target: T1, pH1N1 (A/California/04/2009) HA, wild type, full length (influenza A virus A/California/04/2009 …)
[2] = biological target: T2, A/Texas/36/91 H1N1 (TX H1N1) HA (influenza A virus A/Texas/36/91 H1N1)
[3] = biological target: A/New Caledonia/20/99 H1N1 (NC H1N1) HA (influenza A virus A/New Caledonia/20/99 …)
[4] = biological target: T1, pH1N1 (A/California/04/2009) HA, wild …; remark: listed apart in the source
[5] = biological target: A/Puerto Rico/08/1934 H1N1 (PR8 H1N1) HA (influenza A virus A/Puerto Rico/08/1934 …, UniProt P03452 18-528)
[6] = biological target: T2, A/Texas/36/91 H1N1 (TX H1N1) HA; remark: listed apart in the source
MARM 1 = MARM 1 (Influenza A virus (H1N1))

B1: KPF1 human monoclonal antibody (hmAb) (antibody, V domains shown)
VH: EVQLLESGGGLVQPGGSLRISCAASGSTFGDFAMSWVRQSPGRGLEWVSVTSAGGDRTYYADSVKGRFTISRDNSKNTLYLQMNSLRGEDTAMYYCARLDSSGFHYGRPGRNWGQGTLVTVSS
VL: DIQMTHSPPSLSASVGDRITITCQASQDISYYLIWYQQKPGKAPKPLIYDASNLEAGVPSRFSASGSGTDFTLTISSLQPEDLATYYCQQYKSLPYTFGQGTKLEIK
With B1 the “HAI (µg/ml): least amount of hmAb that fully inhibits hemagglutination” value [1] was 0.39 µg/mL, the “NT (µg/ml): NT50 in the microneutralization assay” value [1] was 0.39 µg/mL and the “HAI (µg/ml), minimum amount of hmAb that completely inhibited hemagglutination” value [2] was 0.78 µg/mL. For the same binder, the “NT50 (µg/ml), microneutralization, crystal violet” value (“NT50 (µg/ml), microneutralization” for short) [2] was 1.26 µg/mL, the “HAI (µg/ml), minimum amount of hmAb that completely inhibited hemagglutination” value [3] was 3.12 µg/mL and the “NT50 (µg/ml), microneutralization” value [3] was 4.56 µg/mL. For the same binder, the “HAI (µg/ml), minimum amount of hmAb that completely inhibited hemagglutination” value [4] was 0.78 µg/mL, the “NT50 (µg/ml), microneutralization” value [4] was 1.46 µg/mL and the “HAI (µg/ml), minimum amount of hmAb that completely inhibited hemagglutination” value [5] was 50 µg/mL. For the same binder, the “HAI (µg/ml): least amount of hmAb that fully inhibits hemagglutination” value [6] was 0.78 µg/mL and the “HAI (µg/ml): least amount of hmAb that fully inhibits hemagglutination” value (MARM 1) was > 200 µg/mL.
